Deep mutational scan of the Zika virus protease

Chain scanned (Zika virus MR766; NS2B from position 2 to 131, then the start of NS3):
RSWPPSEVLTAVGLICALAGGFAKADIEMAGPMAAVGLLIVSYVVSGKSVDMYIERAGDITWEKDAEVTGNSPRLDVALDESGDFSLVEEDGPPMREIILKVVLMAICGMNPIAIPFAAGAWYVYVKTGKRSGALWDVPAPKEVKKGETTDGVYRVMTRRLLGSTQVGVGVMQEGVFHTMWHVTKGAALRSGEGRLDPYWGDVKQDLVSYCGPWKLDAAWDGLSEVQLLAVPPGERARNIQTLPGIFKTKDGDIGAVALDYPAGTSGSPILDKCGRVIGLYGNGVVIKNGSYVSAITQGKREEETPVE

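Pools of virus carrying all single amino acid changes were selected for growth in Huh-7.5 cells. Deep sequencing gave the change in frequency of each mutant relative to wild type, averaged over three replicate libraries (two for positions 207-308). The study looked for pockets that tolerate few changes, as a guide for inhibitor design.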

Scale: log2 effect, wild type = 0; the lower, the more harmful to the virus. A change reads original residue, position, new residue. All changes here are to serine. Positions 1-103, 104-206 and 207-308 were made and measured as separate libraries. Position 1 still belongs to NS2A. In the paper, -1 or higher counts as tolerated. Six mutants with high scores were retested singly and none clearly outgrew wild type, so positive values are not proof of better growth.

* V203S: -8.28
* K204S: -8.49
* Q205S: -5.59
* D206S: -7.84
* L207S: -8.39
* V208S: -9.04
* Y210S: -8.23
* C211S: -0.67
* G212S: -8.07
* P213S: -2.14
* W214S: -8.98
* K215S: -3.80
* L216S: -8.41
* D217S: -3.89
* A218S: -1.94
* A219S: -0.15
* W220S: -7.54
* D221S: -7.10
* G222S: -1.68
* L223S: -1.00
* E225S: -4.46
* V226S: -6.48
* Q227S: -7.24
* L228S: -6.02
* L229S: -3.07
* A230S: -6.12
* V231S: -5.27
* P232S: 0.30
* P233S: -7.07
* G234S: -1.94
* E235S: -1.20
* R236S: 1.02
* A237S: -0.55
* R238S: 0.87
* N239S: -1.32
* I240S: -3.23
* Q241S: -5.58
* T242S: -6.97
* L243S: -2.49
* P244S: -4.16
* G245S: -6.85
* I246S: -6.04
* F247S: -6.85
* K248S: -1.19
* T249S: -7.00
* K250S: -2.27
* D251S: -2.40
* G252S: -5.75
* D253S: -2.91
* I254S: -7.40
* G255S: -7.93
* A256S: -7.59
* V257S: -6.39
* A258S: -7.31
* L259S: -6.77
* D260S: -5.85
* Y261S: -3.82
* P262S: -4.63
* A263S: -1.31

The last 6 entries again:

change,effect (log2)
A258S,-7.31
L259S,-6.77
D260S,-5.85
Y261S,-3.82
P262S,-4.63
A263S,-1.31

Values reported by Ni et al. 2025 (doi:10.1038/s41467-025-63602-z).